Measured values from several laboratories, pooled; numbers as filed in NIAID ChemDB.

Common to all: whole-cell or culture tests

A number after MIC or MFC names an inhibition level or a share of isolates. Blank or dashed fields: not listed here. Lines come from different laboratories, so protocols vary.

{"compound": "Cc1ccc2oc(=S)n(-c3ccc(F)cc3)c(=S)c2c1", "setting": "14 d", "measure": "MIC", "strain or isolate": "My 235/80", "species": "Mycobacterium kansasii", "result": "8 µM"}
{"compound": "CC[C@H]1OC(=O)[C@H](C)[C@@H](O[C@H]2C[C@@](C)(OC)[C@@H](OC(C)=O)[C@H](C)O2)[C@H](C)[C@@H](O[C@@H]2O[C@H](C)C[C@H](N(C)C)[C@H]2OC(=O)NNCCCc2ccccc2)C(C)(O)C[C@@H](C)/C(=N\\OCCCC2CCCCC2)[C@H](C)[C@@H](O)[C@]1(C)O", "measure": "MIC", "strain or isolate": "20039 (clarithromycin-susceptible)", "species": "Mycobacterium avium complex", "result": "0.78 µg/mL"}
{"compound": "CCCCCCCCCCCCCCCCC(=O)NC(CCC(=O)O)(CCC(=O)O)CCC(=O)O", "measure": "MIC", "strain or isolate": "AAy-P-1", "species": "Mycobacterium abscessus", "result": "144 µg/mL"}
{"compound": "CC[C@H]1OC(=O)[C@H](C)[C@@H](O[C@H]2C[C@@](C)(OC)[C@@H](OC(C)=O)[C@H](C)O2)[C@H](C)[C@@H](O[C@@H]2O[C@H](C)C[C@H](N(C)C)[C@H]2O)C(C)(O)C[C@@H](C)/C(=N\\OCC2CCCCC2)[C@H](C)[C@@H](O)[C@]1(C)O", "measure": "MIC", "strain or isolate": "20092 (clarithromycin-resistant)", "species": "Mycobacterium avium complex", "result": "6.25 µg/mL"}
{"compound": "S=c1oc2ccc(Br)cc2c(=S)n1-c1ccccc1", "setting": "14 d", "measure": "MIC", "strain or isolate": "My 235/80", "species": "Mycobacterium kansasii", "result": "2 µM"}
{"compound": "CCCCCCCCO/N=C1\\[C@H](C)CC(C)(O)[C@H](O[C@@H]2O[C@H](C)C[C@H](N(C)C)[C@H]2O)[C@@H](C)[C@H](O[C@H]2C[C@@](C)(OC)[C@@H](OC(C)=O)[C@H](C)O2)[C@@H](C)C(=O)O[C@H](CC)[C@@](C)(O)[C@H](O)[C@H]1C", "measure": "MIC", "strain or isolate": "20092 (clarithromycin-resistant)", "species": "Mycobacterium avium complex", "result": "1.56 µg/mL"}
{"compound": "CCCCCCCCCC(CCCCCCCCC)NC(=O)NC(CCC(=O)O)(CCC(=O)O)CCC(=O)O", "measure": "MIC", "strain or isolate": "AAy-P-1", "species": "Mycobacterium abscessus", "result": "144 µg/mL"}
{"compound": "Cc1ccc2oc(=O)n(-c3cccc(F)c3)c(=S)c2c1", "setting": "21 d", "measure": "MIC", "strain or isolate": "6509/96", "species": "Mycobacterium kansasii", "result": "16 µM"}
{"compound": "CC[C@H]1OC(=O)[C@H](C)[C@@H](O[C@H]2C[C@@](C)(OC)[C@@H](OC(C)=O)[C@H](C)O2)[C@H](C)[C@@H](O[C@@H]2O[C@H](C)C[C@H](N(C)C)[C@H]2OC(=O)NNCCCCc2ccccc2)C(C)(O)C[C@@H](C)/C(=N\\OCCCC2CCCCC2)[C@H](C)[C@@H](O)[C@]1(C)O", "measure": "MIC", "strain or isolate": "20096 (clarithromycin-resistant)", "species": "Mycobacterium avium complex", "result": "3.13 µg/mL"}
{"compound": "O=c1oc2ccc(Br)cc2c(=S)n1-c1ccc(Br)cc1", "setting": "14 d", "measure": "MIC", "strain or isolate": "My 235/80", "species": "Mycobacterium kansasii", "result": "4 µM"}
{"compound": "CO[C@H]1/C=C/O[C@@]2(C)Oc3c(C)c(O)c4c(O)c(c(/C=N/N5CCN(C6CCCC6)CC5)c(O)c4c3C2=O)NC(=O)/C(C)=C\\C=C\\[C@H](C)[C@H](O)[C@@H](C)[C@@H](O)[C@@H](C)[C@H](OC(C)=O)[C@@H]1C", "measure": "MIC50", "strain or isolate": "21 strains", "species": "Mycobacterium avium intracellulare", "result": "0.25 µg/mL"}
{"compound": "CCCCCCCCC(CCCCCCCC)NC(=O)NC(CCC(=O)O)(CCC(=O)O)CCC(=O)O", "measure": "MIC", "strain or isolate": "AAy-P-1", "species": "Mycobacterium abscessus", "result": "108 µg/mL"}
{"compound": "CCOC(=O)C[C@H](NC(=O)Nc1ccc(Cl)cc1)C1O[C@@H]2OC(C)(C)O[C@@H]2[C@H]1OC", "measure": "MIC", "species": "Mycobacterium aurum", "result": ">25 µg/mL"}
{"compound": "C[C@H]1c2cccc(O)c2C(O)=C2C(=O)[C@]3(O)C(O)=C(C(N)=O)C(=O)[C@@H](N(C)C)[C@@H]3[C@@H](O)[C@@H]21", "measure": "MIC50", "strain or isolate": "20 strains", "species": "Mycoplasma hominis", "result": "0.02 µg/mL"}
{"compound": "COc1ccc2oc(=O)n(-c3ccc(C(F)(F)F)cc3)c(=S)c2c1", "setting": "21 d", "measure": "MIC", "strain or isolate": "6509/96", "species": "Mycobacterium kansasii", "result": "62.5 µM"}
{"compound": "Nc1ccc(S(=O)(=O)c2ccc(N)cc2)cc1", "measure": "MIC", "strain or isolate": "101", "species": "Mycobacterium avium complex", "result": "32 µg/mL"}
{"compound": "CC1(C)OC2OC([C@@H]3CC(=O)N(c4ccc(Cl)cc4)C(=O)N3C3CC3)[C@H](Oc3ccccc3)C2O1", "measure": "MIC", "species": "Mycobacterium aurum", "result": ">25 µg/mL"}
{"compound": "CCCCCCCCCCCCCCC(=O)NC(C)(CCC(=O)O)CCC(=O)O", "measure": "MIC", "strain or isolate": "AAy-P-1", "species": "Mycobacterium abscessus", "result": "144 µg/mL"}
{"compound": "CC[C@H]1OC(=O)[C@H](C)[C@@H](O[C@H]2C[C@@](C)(OC)[C@@H](OC(C)=O)[C@H](C)O2)[C@H](C)[C@@H](O[C@@H]2O[C@H](C)C[C@H](N(C)C)[C@H]2OC(=O)NNCc2ccccn2)C(C)(O)C[C@@H](C)/C(=N\\OCCCC2CCCCC2)[C@H](C)[C@@H](O)[C@]1(C)O", "measure": "MIC", "strain or isolate": "20039 (clarithromycin-susceptible)", "species": "Mycobacterium avium complex", "result": "1.56 µg/mL"}
{"compound": "Cc1ccc(-n2c(=S)oc3ccc(C)cc3c2=S)cc1", "setting": "14 d", "measure": "MIC", "strain or isolate": "My 235/80", "species": "Mycobacterium kansasii", "result": "2 µM"}
{"compound": "CCCCCCCCCCCCCCCCC(=O)NC(C)(CCC(=O)O)CCC(=O)O", "measure": "MIC", "strain or isolate": "AAy-P-1", "species": "Mycobacterium abscessus", "result": "36 µg/mL"}
{"compound": "CCCCCCCCCCCCN1C(=O)N(c2ccc(Cl)cc2)C(=O)C[C@H]1C1OC2OC(C)(C)OC2[C@H]1Oc1ccccc1", "measure": "MIC", "species": "Mycobacterium aurum", "result": ">25 µg/mL"}
{"compound": "Fc1ccc2oc(=S)n(-c3ccc(Cl)cc3)c(=S)c2c1", "setting": "21 d", "measure": "MIC", "strain or isolate": "My 235/80", "species": "Mycobacterium kansasii", "result": "4 µM"}
{"compound": "CC1(C)N=C(N)N=C(N)N1OCCCOc1cc(Cl)c(Cl)cc1Cl", "measure": "MIC", "strain or isolate": "1753", "species": "Mycobacterium avium complex", "result": "2 µg/mL"}
{"compound": "C[C@@H]1CN(c2c(F)c(N)c3c(=O)c(C(=O)O)cn(C4CC4)c3c2F)C[C@H](C)N1", "measure": "MIC", "strain or isolate": "ATCC 25275", "read by": "broth dilution / visual reading", "species": "Mycobacterium simiae", "result": "0.3 µg/mL"}
{"compound": "CCOC(=O)C[C@@H](C1O[C@@H]2OC(C)(C)O[C@@H]2[C@H]1Oc1ccccc1)N(C(=O)NCc1ccccc1)C1CC1", "measure": "MIC", "species": "Mycobacterium aurum", "result": ">25 µg/mL"}
{"compound": "CCCCCCCCN(CCCCCCCC)C(=O)NC(CCC(=O)O)(CCC(=O)O)CCC(=O)O", "measure": "MIC", "strain or isolate": "EO-P-1", "species": "Mycobacterium chelonae", "result": "54 µg/mL"}
{"compound": "CCCCN(C(=O)Nc1ccc(F)cc1)[C@@H](CC(=O)OCC)C1O[C@@H]2OC(C)(C)O[C@@H]2[C@H]1Oc1ccccc1", "measure": "MIC", "species": "Mycobacterium aurum", "result": ">25 µg/mL"}
{"compound": "CC[C@H]1OC(=O)[C@H](C)[C@@H](OC2C[C@@](C)(OC)[C@@H](O)[C@H](C)O2)[C@H](C)[C@@H](O[C@@H]2O[C@H](C)C[C@H](N(C)C)[C@H]2O)C(C)(O)C[C@@H](C)/C(=N\\OCCc2ccccc2)[C@H](C)[C@@H](O)[C@]1(C)O", "measure": "MIC", "strain or isolate": "20039 (clarithromycin-susceptible)", "species": "Mycobacterium avium complex", "result": "1.56 µg/mL"}
{"compound": "CCCCCCCC/C=C\\CCCCCCCCN1C(=O)N(c2ccccc2)C(=O)C[C@H]1C1OC2OC(C)(C)OC2[C@H]1OC", "measure": "MIC", "species": "Mycobacterium aurum", "result": ">25 µg/mL"}
{"compound": "S=c1oc2ccc(Br)cc2c(=S)n1-c1cccc(Cl)c1", "setting": "14 d", "measure": "MIC", "strain or isolate": "6509/96", "species": "Mycobacterium kansasii", "result": "2 µM"}
{"compound": "CC[C@H]1OC(=O)[C@H](C)[C@@H](O[C@H]2C[C@@](C)(OC)[C@@H](OC(C)=O)[C@H](C)O2)[C@H](C)[C@@H](O[C@@H]2O[C@H](C)C[C@H](N(C)C)[C@H]2OC(=O)NN(C)Cc2ccccc2)C(C)(O)C[C@@H](C)/C(=N\\OCCCC2CCCCC2)[C@H](C)[C@@H](O)[C@]1(C)O", "measure": "MIC", "strain or isolate": "20096 (clarithromycin-resistant)", "species": "Mycobacterium avium complex", "result": "6.25 µg/mL"}
{"compound": "CCCCN(C(=O)Nc1ccc(F)cc1)[C@@H](CC(=O)OCC)C1O[C@@H]2OC(C)(C)O[C@@H]2[C@H]1OC", "measure": "MIC", "species": "Mycobacterium aurum", "result": ">25 µg/mL"}

For reference, 2 entries again:

compound	setting	measure	strain or isolate	read by	species	result
CCCCCCCCCCCCCCC(=O)NC(C)(CCC(=O)O)CCC(=O)O	-	MIC	AAy-P-1	-	Mycobacterium abscessus	144 µg/mL
C[C@H]1c2cccc(O)c2C(O)=C2C(=O)[C@]3(O)C(O)=C(C(N)=O)C(=O)[C@@H](N(C)C)[C@@H]3[C@@H](O)[C@@H]21	-	MIC50	20 strains	-	Mycoplasma hominis	0.02 µg/mL